Here are results for one compound from patent publication US20250092029A1 (THE WISTAR INSTITUTE OF ANATOMY AND BIOLOGY, priority 2022, published 2025).

The subject of this assay is SARS-CoV-2 (USA-WA1/2020 variant). The assay can be described thus: Virus CPE assay in Vero-E6 cells, USA-WA1/2020. Particulars: read-out: EC50, inhibition of CPE; USA-WA1/2020, Vero-E6, 4 days.

On to `O=C(CN1C(=O)[C@@H](NC(=O)c2cc3ccccc3cn2)COc2ccccc21)N[C@@H](C[C@@H]1CCNC1=O)C(=O)COC(=O)c1c(Cl)cccc1Cl`, for which the 50% effective concentration (EC50) (commonly the concentration giving half of the maximal effect) was 16.3 µM.
